Anti-infective test results gathered from many reports (values: NIAID ChemDB through PubChem).

Shared fields: tests in culture; agent: Candida albicans; measure: EC50

Blank or dashed fields: not listed here. Two numbers with a dash give a range or band. Lines come from different laboratories, so protocols vary. ECn: concentration that inhibits the pathogen or its effect by n%.

smiles | strain or isolate | method | value
CC1(C)C[C@H](N)[C@H](C(=O)O)C1 |  |  | 256 µg/mL
C1CCC(C[C@@]23COOC[C@@H]2O3)CC1 |  |  | 125–250 µM
CC(C)(C)C1CCC(CN2C3=NC[C@H](Cc4ccccc4)N3C[C@@H]2Cc2ccccc2)CC1 | ATCC 10231 |  | 50.6 µg/mL
O=Cc1cc(O)ccc1O | PYCC 3436 | broth dilution / turbidity | 0.06 µM
C[C@H]1C=C[C@@H](C23CC4CC(CC(C4)C2)C3)OO1 |  |  | 31–63 µM
C=C1CC(N)[C@H](CO)C1 |  |  | >256 µg/mL
O=C(O)/C=C/c1ccccc1 | ATCC 90028 | broth dilution / turbidity | 0.64 µM
C1CCC(C[C@H]2CN=C3N(CCC45CC6CC(CC(C6)C4)C5)[C@@H](CC4CCCCC4)CN32)CC1 | ATCC 10231 |  | 4.4 µg/mL
O=Cc1cccc(O)c1O | ATCC 10231 | broth dilution / turbidity | 0.05 µM
CC(C)(C)C1CCC(CN2C3=NC[C@@H](CC4CCCCC4)N3C[C@@H]2C2CCCCC2)CC1 | ATCC 10231 |  | 9.7 µg/mL
C=C1C[C@H](NCC)[C@H](C(=O)O)C1 |  |  | 128 µg/mL
CCCCCCC[C@@H]1OO[C@H](CCCCCCC)[C@@H]2O[C@@H]21 |  |  | 500–1000 µM
CC(C)(C)C1CCC(CN2C3=NC[C@H](CC4CCCCC4)N3C[C@@H]2CC2CCCCC2)CC1 | ATCC 10231 |  | 4.2 µg/mL
C1C2CC3CC1CC(C2)C3[C@H]1OOC[C@@H]2O[C@@H]21 |  |  | 31–63 µM
C1CCC(C[C@H]2CN=C3N2C[C@@H](C2CCCCC2)N3CCC23CC4CC(CC(C4)C2)C3)CC1 | ATCC 10231 |  | 9.4 µg/mL
C1=C[C@H](C2C3CC4CC(C3)CC2C4)OO[C@@H]1C1C2CC3CC(C2)CC1C3 |  |  | >1000 µM
N[C@H]1C=CCO[C@H]1C(=O)O |  |  | 64 µg/mL
CCN1C2=NC[C@H](C3CCCCC3)N2C[C@@H]1Cc1ccccc1 | ATCC 10231 |  | >64 µg/mL

Repeating the first 2 entries:

smiles	strain or isolate	method	value
CC1(C)C[C@H](N)[C@H](C(=O)O)C1			256 µg/mL
C1CCC(C[C@@]23COOC[C@@H]2O3)CC1			125–250 µM